From paper PMC6099356 (The New Phytologist, 2018)

Target: GST-SlCaM6 (tomato (Solanum lycopersicum))
Assay: other fluorescence titration
Conditions: both partners purified

STWKIFKIISRLKKLKLKR [peptide 1 (last 19 aa at the C-terminus of SFI5)]
IC50: 1000 nM
